Data from patent US12702649B2, “Method of treating cystic fibrosis airway disease” (priority 2016, dated 2026).

Conditions: sputum mixed 1:1 (w/v) with 300 mM tromethamine ± 1197 mM (7%) NaCl, compared to hypertonic or isotonic saline

NC(CO)(CO)CO [tromethamine, tris(hydroxymethyl)aminomethane]
CF sputum pH: raised the pH of CF sputum
